Measurements reported in PubChem BioAssay AID1259414 (Drosophila RNAi Screening Center, 2018)

Assay: 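Fly genes that alter Wolbachia amount inside host cells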 (primary screen)
Cell system: Drosophila JW18 cells infected with Wolbachia
Reagents: long dsRNA against Drosophila genes, 0.25 µg dsRNA per well of a 384-well plate
Time to read-out: 5 days
Challenge: cells persistently infected with Wolbachia before knock-down; no added drug
Measured: 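Automated imaging of bacterial rRNA staining divided by host cell count, reported as plate-normalised robust z-score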
Reading the numbers: Wolbachia per cell robust z: higher = more Wolbachia per host cell than the plate typical
Rule for the call: 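Hit when robust z is 1.5 or more, or -1.5 or less, in at least two of three replicates; excludes dsRNAs with several or no targets, genes not expressed in JW18 and well A1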
In all, the deposit lists about 24,000 reagents; below is an unselected part of those with a known target gene and a result. In the full data, about 1,210 (5%) got an active call. 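Inactive calls also include excluded dsRNAs with several or no targets, genes unexpressed in JW18, and well A1, regardless of score.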 A number with no mark means an inactive call. Names joined by + are all predicted targets of the reagent. No sequences are given here.

predicted target	dsRNA	Wolbachia per cell robust z, rep 1	Wolbachia per cell robust z, rep 2	Wolbachia per cell robust z, rep 3
CG4712 (GeneID 36469)	DRSC06882	-0.267	-4.15	0.486
CG3706 (GeneID 53540)	DRSC18649	0.526	-0.0848	0.368
CG16719 (GeneID 39131)	DRSC10222	-4.94 (active)	0.762	-4.34
spi (GeneID 35253)	DRSC03618	0.505	0.627	0.882
spi (GeneID 35253)	DRSC29414	-2.31 (active)	-4.01	-0.697
rho-6 (GeneID 34640)	DRSC02588	-4.67	-0.887	-0.307
rho-6 (GeneID 34640)	DRSC29070	-0.675	-1.73	-0.98
CG34168 (GeneID 50457)	DRSC01938	0.546	0.136	-0.298
CG17329 (GeneID 34958)	DRSC01926	0.0279	-2.3	-0.677
CG17329 (GeneID 34958)	DRSC28365	1.14	0.836	0.794
CG8777 (GeneID 35921)	DRSC07263	1.37	0.54	-0.231
CG34423 + Mthfs	DRSC04088	-0.0236	0.43	0.252
Arr1 (GeneID 35078)	DRSC01867	2.06	0.376	0.994
CG14442 (GeneID 31609)	DRSC25040	0.0776	0.46	2.39
grk (GeneID 34171)	DRSC03540	-1.54	-0.799	-0.364
CG14185 (GeneID 40197)	DRSC10184	0.584	-2.38	1.29
CG9626 (GeneID 40979)	DRSC16525	0.322	0.659	-2.21
CG9626 (GeneID 40979)	DRSC27021	-0.234	-0.957	-4.14
CG14984 (GeneID 38467)	DRSC08442	-0.219	-2.07	-0.43
CG14984 (GeneID 38467)	DRSC27683	-0.309	-0.538	-1.37
CG30053 (GeneID 246419)	DRSC07260	-0.511	-0.888	0.142
speck (GeneID 37867)	DRSC04608	0.596	-0.523	-0.11
speck (GeneID 37867)	DRSC27654	0.802	0.291	1.02
ATPsynE (GeneID 41745)	DRSC15476	-1.1	1.49	1.32
ATPsynE (GeneID 41745)	DRSC30103	1.07	-9.97	0.913
CG42538 (GeneID 8673985)	DRSC41467	0.217	0.49	-2.72
CG32650 (GeneID 326227)	DRSC19899	-3.43 (active)	-5.62	1.41
Jheh1 (GeneID 251984)	DRSC06529	0.564	0.819	0.447
Jheh1 (GeneID 251984)	DRSC25526	-0.733	-0.77	-0.423
lncRNA:CR33948 (GeneID 3772461)	DRSC37885	-1.43	-0.954	-0.678
TORIP (GeneID 40158)	DRSC10104	0.607	-1.59	-0.165
PolD1 (GeneID 39746)	DRSC11138	0.0253	-0.545	0.0712
PolD1 (GeneID 39746)	DRSC28966	1.59	0.989	-0.357
CG15754 (GeneID 32307)	DRSC19719	0.719	1.23	0.0072
CG15754 (GeneID 32307)	DRSC25209	-0.281	0.898	-4.1
CycB3 (GeneID 42971)	DRSC16618	-2.21 (active)	-0.46	-1.6
CG42749 (GeneID 31438)	DRSC18091	0.957	-1.19	-3.45
CG42749 (GeneID 31438)	DRSC18092	-2.48	1.09	-0.0298
CG42749 (GeneID 31438)	DRSC29102	-0.137	0.688	1.43
CG5290 (GeneID 39998)	DRSC10501	-0.48	0.319	1.15
CG5290 (GeneID 39998)	DRSC30041	0.0525	-1.61	0.376
nxf2 (GeneID 39843)	DRSC10403	0.317	-4.21	-0.863
nxf2 (GeneID 39843)	DRSC26721	-3.49	-0.329	-0.505
Mnat9 (GeneID 43726)	DRSC14325	-3.74	-0.882	-0.653
tomb + Cap-D3	DRSC02347	0.227	0.629	0.559
tomb + Cap-D3	DRSC27851	-5.26	-1.07	-0.34
msopa (GeneID 45962)	DRSC23240	0.943	0.486	0.891
Jon66Cii (GeneID 38953)	DRSC10778	0.52	-4.21	-0.0543
Jon66Cii (GeneID 38953)	DRSC28611	0.171	-0.59	0.327
CG12985 (GeneID 32774)	DRSC19505	-2.35 (active)	-1.52	-0.22
CG12985 (GeneID 32774)	DRSC26985	0.677	1.09	0.489
CG12818 (GeneID 41261)	DRSC14556	0.669	0.498	0.213
CG34027 (GeneID 3885585)	DRSC37751	-1.06	-0.946	-1.92
wry (GeneID 33361)	DRSC00352	-0.638	-1.6	-0.882
wry (GeneID 33361)	DRSC00456	0.122	0.947	1.13
wry (GeneID 33361)	DRSC22414	0.453	-0.144	-2.16
GstZ1 (GeneID 41132)	DRSC16478	-1.56	0.735	0.0978
Peritrophin-15a (GeneID 50433)	DRSC02636	0.477	-2.89	-1.18
Peritrophin-15a (GeneID 50433)	DRSC29171	0.213	-0.903	-0.366
Pex16 (GeneID 40293)	DRSC11750	0.533	0.9	0.338
Spn77Bb + Spn77Bc	DRSC10689	-3.61	-0.531	-7.61
CR46300 (GeneID 3885581)	DRSC12466	-1.28	-2.32	-0.66
CR46300 (GeneID 3885581)	DRSC37917	-6.09	-0.471	0.128
REPTOR (GeneID 42930)	DRSC14626	-4.86	2.78	0.341
REPTOR (GeneID 42930)	DRSC24359	0.394	1.55	-0.0472
CG15445 (GeneID 33094)	DRSC20517	1.55	1.22	-0.659
Ntl (GeneID 34046)	DRSC03003	0.253	-0.342	-0.479
Ntl (GeneID 34046)	DRSC28007	-0.122	-0.864	-0.833
CG4168 (GeneID 34889)	DRSC01447	-11	-2.92	-0.0938
CG4168 (GeneID 34889)	DRSC01933	0.704	-0.547	0.112
CG4168 (GeneID 34889)	DRSC21319	0.531	0.647	0.574
CG4168 (GeneID 34889)	DRSC22789	0.0837	-1	-1.13
Slc25A46b (GeneID 35081)	DRSC02888	0.0252	0.195	-0.485
CG32984 (GeneID 34218)	DRSC21602	-1.27	-0.9	-0.871
CG32984 (GeneID 34218)	DRSC29257	0.331	-0.999	0.0776
CG32984 (GeneID 34218)	DRSC39096	-0.198	-0.936	-1.6
bwa (GeneID 250736)	DRSC01749	0.584	0.684	0.894
bwa (GeneID 250736)	DRSC02310	-0.49	-0.214	-0.135
CG32161 (GeneID 317890)	DRSC22128	0.0594	-0.15	0.67
pk (GeneID 45343)	DRSC06178	0.0574	-0.163	-5.21
pk (GeneID 45343)	DRSC07664	0.961	-0.171	-0.364
pk (GeneID 45343)	DRSC24979	-2.47	-1.27	0.177
Bsg (GeneID 318841)	DRSC01010	-0.438	-1.33	-0.471
Bsg (GeneID 318841)	DRSC01011	-0.84	-0.176	0.14
Bsg (GeneID 318841)	DRSC40816	0.45	0.844	0.236
CG17207 (GeneID 2768665)	DRSC15198	-0.117	-0.112	-0.0537
CG5455 (GeneID 43196)	DRSC15805	-0.254	-3	0.592
CG5455 (GeneID 43196)	DRSC27389	0.101	-1.41	-0.869

Quoted from the listing (7 entries):
predicted target	dsRNA	Wolbachia per cell robust z, rep 1	Wolbachia per cell robust z, rep 2	Wolbachia per cell robust z, rep 3
REPTOR (GeneID 42930)	DRSC14626	-4.86	2.78	0.341
REPTOR (GeneID 42930)	DRSC24359	0.394	1.55	-0.0472
CG15445 (GeneID 33094)	DRSC20517	1.55	1.22	-0.659
Ntl (GeneID 34046)	DRSC03003	0.253	-0.342	-0.479
Ntl (GeneID 34046)	DRSC28007	-0.122	-0.864	-0.833
CG4168 (GeneID 34889)	DRSC01447	-11	-2.92	-0.0938
CG4168 (GeneID 34889)	DRSC01933	0.704	-0.547	0.112
